Experimental data from article PMC12490008 (Environmental Science & Technology, 2025).

Tested on: River Chriesbach biofilm suspension (100%, 10%, 1%)

Anabaenopeptin B was tested, and the “half-life 1 (h), biphasic model” value was 41.06 h and the “half-life 2 (h), biphasic model” value was 41.47 h.
